“And” between values parts separate entries of the source, which are not always exact repeats. Equal entries are not always repeated.

The target in assay [1] is Sup35-NM, a protein segment comprising N-terminal and middle domains of the yeast S. cerevisiae prion Sup35 (S. cerevisiae). Nature of the assay: native gel or EMSA; BN-PAGE of AG fibrils (20 μM, over 1 month) after 2% SDS under boiling for 5 min. A general note: In EMSA bound probe runs differently from free probe, usually more slowly.
Assay [2] has the same target. Nature of the assay: SEC; dis-assembly of AG fibrils (1 month, 20 μM) boiled with 2% SDS for 5 min, cooled, injected; room temperature. A general note: In gel filtration, larger molecules generally elute earlier.
Assay [3] has the same target. Kind of assay: native gel or EMSA; BN-PAGE of AG fibrils under SDS without boiling.
Assay [4] shares this target. Nature of the assay: SEC; time course of self-assembly after removal of urea by desalting; HiLoad Superdex 200 pg 16/60, 1 mL/min; 20 mM Tris pH 8.0, 100 mM NaCl; 4 °C; samples at 2 to 32 h.
Assay [5] has the same target. Kind of assay: SEC; dis-assembly of AG fibrils under SDS without boiling; room temperature.
For assay [6] the target is unchanged. Nature of the assay: SEC; dis-assembly of FP fibrils (20 μM) boiled with 2% SDS for 5 min, cooled, injected; room temperature.

In assay [1], “Sup35-NM, a protein segment comprising N-terminal and middle domains of the yeast S. cerevisiae prion Sup35 (domain or fragment)” gave a percentage of ATmer in the whole AG fibril of 1.1% and a stoichiometry N of 3. In assay [2], the dissociated portion of fibrils worked out at 58%; the stoichiometry N is 3 and 9. In assay [3], the percent monomer band on BN-PAGE came to 13%. In assay [4], the percent of total protein in the 41 min species (short fibril) was determined as 83% and the stoichiometry N is 9. Further, the percentage of dissociated fibrils in assay [5] is 46%. In assay [6], this substance returned a dissociated portion of fibrils of 98% and a stoichiometry N of 3.

As a reminder, the stoichiometry N is the number of molecules, sites or subunits per partner or assembly.

Values taken from article PMC4964355.
